## Library screen at single concentrations

Each number is a percent effect as filed.
How 0% and 100% were set is not recorded. Most values in the screen are low, and negative values occur.
This is part of a subset picked to be rich in strong results.
Two or more numbers in one place are separate tests of the same structure; such repeats can differ widely.
A dash means the value is not listed here; it may have been measured.

Mtb glucose medium: 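Growth of Mycobacterium tuberculosis over 3 days (7H9 medium with glucose and tyloxapol); the read-out is not stated. Concentration: 50 µM. Direction is inferred from retests: higher values go with more growth inhibition. About 69,000 compounds were tested under these conditions; 1.1% (about 760) showed 50% or more at least once.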
Mtb cholesterol medium: 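Phenotypic screen: M. tuberculosis growth, cholesterol and DPPC medium, 4 days; the read-out is not stated. Concentration: 50 µM. The record gives no direction; compounds that gave an IC50 in retests scored well above the rest, so higher reads as more growth inhibition. Size under these conditions: about 69,000 compounds, about 370 of them at 50% or above in at least one test.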

Compound	Mtb glucose medium	Mtb cholesterol medium
O=C(CCCc1nc(-c2ccccc2)no1)N1CCN(CCO)CC1	-20.06	-8.021
CCc1[nH]c2c(CNc3cc(C)nc(NC)n3)cc(C)cc2c1C	71.91 and 56.62	69.7
Cc1c(Cl)c(C(F)(F)F)nn1C(C)C(=O)NC1CCN(C)CC1 (centres unmarked)	30.56	-
Cc1nc(N2CCCC2)nc2c1CCN(Cc1ccco1)CC2.O=C(O)C(F)(F)F	84.93	78.81
CCOCCC(=O)Nc1cc(C(N)=O)ccc1N1CCCC(C)C1 (centres unmarked)	-9.131	-
CCOCc1nnc(NCc2cccc(C)c2)o1	8.667	-
CS(=O)(=O)NCC1CCCCN1Cc1ccccc1C#N (centres unmarked)	18.82	27.29
CC(Nc1nc(-c2ccccc2)nc2c1CCNCC2)c1cccnc1 (centres unmarked)	66.7	-
CCC(CNC(=O)c1ccco1)N1CCc2ccccc2C1 (centres unmarked)	16.92 and 1.091	-
CC(C(=O)N(C)C)S(=O)(=O)c1cc2c(cc1Cl)OCCO2 (centres unmarked)	17.87	-
Cc1cc(CN2CCN(C(=O)Nc3cccnc3)CC2)on1	-5.607	-
Cc1cc(CN2CCc3nc(C(C)C)nc(O)c3CC2)c(C)s1	-	54.36
Cn1cc(N2CC3(CCN(Cc4nccn4C)C3)CC2=O)cn1.O=C(O)C(F)(F)F (centres unmarked)	-13.54	-
CCC1CN(CC(=O)NCCN2CCCCCC2)c2ccccc2S1 (centres unmarked)	66.18	-
Cc1cc(S(=O)(=O)N2C[C@H](C3CC3)[C@@H](N)C2)c(C)s1	-12.61	-
COc1ccc(CN2CCc3nc4ccsc4c(=O)n3CC2)c(C)c1C	-3.322	-16.65
COc1ccc(F)c(CN2CCCC3(CCN(S(C)(=O)=O)C3)C2)c1 (centres unmarked)	-8.831 and 4.855	-
O=C(O)C(F)(F)F.[H][C@]12C[C@@H](CN(C)C)N(C(C)=O)[C@@]1([H])CCN(C(=O)c1cccn1C)C2	-	-17.52
CN(C)S(=O)(=O)N1CCC(Oc2cccnn2)CC1	-0.1369	-8.594
Cc1nc(CN2CCCC(N(C)c3ccc(C#N)cn3)C2)no1 (centres unmarked)	8.806	-
CC(=O)c1c(F)cccc1N1CCC(Cc2cccnc2)CC1	51.31	-
CN1CCC(N(C)CCC(=O)N2CCC(OCc3ccccc3)CC2)C1 (centres unmarked)	-14.06	-
Cc1nc(C2CCCN(C(=O)c3ccc(N4CCCC4)nc3)C2)no1 (centres unmarked)	13.6	-
Cc1cc2nc(C(C)C)cc(NCCNc3ncccc3C)n2n1	-14.11	-
c1ccc(Cc2cncc(C3CCCN3C3CCOCC3)n2)cc1 (centres unmarked)	-20.18	1.188 and -0.1312
COc1ccc2c(c1)c(-c1nc(N(C)C)ncc1CN)cn2C	56.12	-
O=C(NCC1(O)COCCN(Cc2cccc(O)c2)C1)c1cnccn1 (centres unmarked)	4.456	-
CC(C)C1CN(C(=O)c2ccccc2)CCS1 (centres unmarked)	27.48 and 35.22	22.68
O=C(CCn1ccccc1=O)N1CCCC(COc2ccc(F)cc2)C1 (centres unmarked)	-8.782	-
Cc1ccccc1NC1CCN(C(=O)CCc2ccco2)CC1	44.67 and 51.23	-
COc1ccc(CNc2ncc(-c3cc(C)no3)c(C(C)C)n2)cc1	18.9	61.07
Cc1ccccc1-n1cc(-c2ccnc(N3CCCC(CN)C3)n2)cn1 (centres unmarked)	0.06471 and 2.468	-
Cc1ccc(Cl)c(CN2CCC(c3nccn3C(C)C)CC2)c1F	20.33	-
[H][C@]12CN(C(=O)c3ccno3)CCN1C(=O)N(Cc1ccc(C)cc1)C2	-12.05 and 4.08	-
c1ccc(-c2nc(CCNCc3ccncc3)co2)cc1	-	-10.82 and 60.27
CNC(=O)NC(C)c1nc(-c2ccc(Br)cc2)no1 (centres unmarked)	-10.18	-
CCCNC(=O)NC(=O)CNC(C)(C)c1ccc2c(c1)OCO2	0.9899 and 23.89	24.18
CS(=O)(=O)Nc1cccc(C(=O)Nc2ccc3c(c2)C(=O)NC3)c1	-9.848	-
COc1cccc(-c2noc3c2CN(c2nc(C)ncc2C)CC3)c1	56.68	-
COc1ccc(CNc2nc(C3CC3)no2)cc1OC	2.247	4.317 and -4.612
CN1CCN(C(=O)c2cc(-c3cccs3)cs2)CC1	11.81	-
Fc1ccc(-c2cnc(CN3CCCC3Cn3cccn3)o2)cc1 (centres unmarked)	-13.75	-
NCc1n[nH]c(-c2ccc(Br)cc2)n1	67.61 and 1.143	-

For reference, 5 entries once more:

| Compound | Mtb glucose medium | Mtb cholesterol medium |
|---|---|---|
| `O=C(O)C(F)(F)F.[H][C@]12C[C@@H](CN(C)C)N(C(C)=O)[C@@]1([H])CCN(C(=O)c1cccn1C)C2` | - | -17.52 |
| `COc1ccc(CN2CCc3nc4ccsc4c(=O)n3CC2)c(C)c1C` | -3.322 | -16.65 |
| `CS(=O)(=O)Nc1cccc(C(=O)Nc2ccc3c(c2)C(=O)NC3)c1` | -9.848 | - |
| `CC(C(=O)N(C)C)S(=O)(=O)c1cc2c(cc1Cl)OCCO2` (centres unmarked) | 17.87 | - |
| `[H][C@]12CN(C(=O)c3ccno3)CCN1C(=O)N(Cc1ccc(C)cc1)C2` | -12.05 and 4.08 | - |

From ChEMBL document CHEMBL3988442, “University of Dundee, Small-Polar-MMV Screening Library” (2021).